Experiments:
P. aeruginosa LpxD = P. aeruginosa LpxD (Pseudomonas aeruginosa, UniProt Q9HXY6); experiment: Surface plasmon resonance binding to LpxD; conditions: read-out: Binding affinity (Kd) LpxD; SPR, Biacore 4000, 25 °C, PBS-P+ 1% DMSO, analyte 2.5-40 µM in triplicate
Method: (§1) All experiments were conducted using a Biacore 4000 instrument with a CM5 chip at 25 °C. Avi-LpxA (31.6 kDa, 7.9 mg/mL stock concentration) and Avi-LpxD (39.8 kDa, 16.1 mg/mL stock concentration) were used as ligands to capture onto the NeutrAvidin immobilized CM5 chip surface. NeutrAvidin (60 kDa, 10 mg/mL) was diluted in 10 mM sodium acetate buffer at pH 4.5 (1:50 dilution, 200 µg/mL diluted concentration) and immobilized to a level of ~18000 RU, using standard amine coupling chemistry. This NeutrAvidin was immobilized onto all spots (Ss) of all flow cells (FCs). PBS-P (20 mM Phosphate buffer, pH 7.4, 2.7 mM KCl, 137 mM NaCl, 0.05% v/v surfactant P20) was used as the immobilization running buffer. Flow cell 3 off all flow cells were used as the reference spot. Avi-LpxA was diluted (1:75 dilution, 105.3 µg/mL diluted concentration) in PBS-P and injected onto S1 of all FCs (FCs 1–4). Avi-LpxD was diluted (1:75 dilution, 214.7 µg/mL diluted concentration) in PBS-P and injected onto S5 of all FCs. The ligands were captured in the presence of PBS-P. Based on the captured response values, theoretical Rmax values were calculated for the lowest and highest MW analytes. The Rmax values assume 1:1 interaction mechanism. Overnight kinetics were performed for all compounds in the presence of PBS-P+ 1% DMSO buffer. Contact time and dissociation time used in screening experiments were 60 seconds and 300 seconds respectively. Injected analyte concentrations were 0 µM, 2.5 µM, 5 µM, 10 µM, 20 µM, and 40 µM. The compounds were injected in triplicate for each concentration. Data from overnight kinetics were evaluated by steady state affinity or 1:1 kinetics model fitting. The SPR response curves and fitted curves can be found in Supplementary Fig. S1.

Amino acid sequences for entries named in this document (tags omitted).
UniProt Q9HXY6, whole entry: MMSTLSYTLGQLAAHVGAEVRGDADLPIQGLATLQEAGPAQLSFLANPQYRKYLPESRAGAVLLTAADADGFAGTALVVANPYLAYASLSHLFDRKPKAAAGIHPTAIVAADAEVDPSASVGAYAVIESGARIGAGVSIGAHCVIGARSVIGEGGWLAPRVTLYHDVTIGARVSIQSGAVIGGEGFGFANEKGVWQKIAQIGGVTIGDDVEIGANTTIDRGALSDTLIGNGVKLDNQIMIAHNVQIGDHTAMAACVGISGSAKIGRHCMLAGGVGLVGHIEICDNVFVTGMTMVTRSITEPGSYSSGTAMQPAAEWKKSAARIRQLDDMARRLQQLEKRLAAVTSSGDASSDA
UniProt Q9X6P4, whole entry: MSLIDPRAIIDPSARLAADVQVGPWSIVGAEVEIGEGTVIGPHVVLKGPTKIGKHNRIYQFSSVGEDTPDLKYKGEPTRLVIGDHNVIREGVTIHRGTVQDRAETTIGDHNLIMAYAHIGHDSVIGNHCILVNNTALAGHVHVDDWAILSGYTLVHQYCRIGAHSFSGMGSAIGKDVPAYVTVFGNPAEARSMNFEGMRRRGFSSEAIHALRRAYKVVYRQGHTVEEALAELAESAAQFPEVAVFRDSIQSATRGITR

[1] = test system: laboratory P. aeruginosa strains; experiment: Preliminary bacterial growth inhibition (MIC) study; conditions: at 256 µg/mL; preliminary studies, data not shown
P. aeruginosa LpxA = P. aeruginosa LpxA (Pseudomonas aeruginosa, UniProt Q9X6P4); experiment: Surface plasmon resonance binding to LpxA; conditions: read-out: Binding affinity (Kd) LpxA; SPR, Biacore 4000, 25 °C, PBS-P+ 1% DMSO, analyte 2.5-40 µM in triplicate
Method: as §1

Question: How did the Kd (P. aeruginosa LpxD) turn out when `NC(Cc1c[nH]c2ccc([N+](=O)[O-])cc12)C(=O)O` (stereo not shown) was run?
Answer: > 40 µM

Question: What about the “Inhibition of bacterial growth” value [1] of the same compound?
Answer: did not show significant inhibition of bacterial growth

Question: And the Kd (P. aeruginosa LpxA)?
Answer: 2.1 µM

Question: With `C/C(=C\C(=O)Nc1nnn[nH]1)c1cccc(C(F)(F)F)c1` as the compound, how does the Kd (P. aeruginosa LpxD) read?
Answer: > 40 µM

Question: What about the Kd (P. aeruginosa LpxA) of the same compound?
Answer: 13.6 µM

Question: With `O=C(COc1ccccc1)NNC1=NS(=O)(=O)c2ccccc21` as the compound, how does the Kd (P. aeruginosa LpxD) read?
Answer: > 40 µM

Question: What about the Kd (P. aeruginosa LpxA) of the same compound?
Answer: 16.7 µM
